Laboratory results as given in article PMC11110755, “Structure-based virtual screening of unbiased and RNA-focused libraries to identify new ligands for the HCV IRES model system” (RSC Medicinal Chemistry, 2024).

Legend:
[1] = tested on: Tte preQ1-Riboswitch aptamer domain; assay: MST off-target counter screen, preQ1-riboswitch aptamer domain; type: binding, Thermoanaerobacter tengcongensis; conditions: at high concentrations
Procedure: (§1) Off-target counter screens by MST were performed as described previously.[31,84] Briefly, the 5′-Cy5-labelled Tte preQ1-Riboswitch aptamer domain (Biomers.net GmbH) was heated to 75 °C for 5 min, cooled down to room temperature for at least 20 min and then diluted to 20 nM in MST buffer (50 mM Tris-HCl pH 7.5, 100 mM KCl, 25 mM MgCl2) and supplemented with compounds 4, 5, 8–13, 18, 21, 22 and 26 to final concentrations of 1000, 100, 10 and 0.001 μM. PreQ1 was used as a positive control. The 5′-Cy5-labelled B. angulatum SAM VI-Riboswitch aptamer domain (Eurofins Genomics GmbH) was heated to 75 °C for 5 min, cooled down to room temperature for at least 20 min and then diluted to 20 nM in MST buffer (50 mM Tris-HCl pH 7.5, 100 mM KCl, 25 mM MgCl2) and supplemented with compounds 5, 9 and 28 to final concentrations of 1000, 100, 10 and 0.001 μM. SAM was used as a positive control. For each experiment, one DMSO negative control was carried out. The final DMSO concentration was 2%. All measurements were performed at least as duplicates for pre-screening and triplicates for KD-determination. MST measurements were analyzed from signals after 18 s laser on-time using the MO.Affinity Analysis software (version 2.3) and exported for statistical analysis and plotting in GraphPad Prism (version 8.0.1., GraphPad Software, Boston, Massachusetts USA, https://www.graphpad.com).

[2] = tested on: HCV IRES subdomain IIa; type: binding, hepatitis C virus; conditions: at high concentrations
Procedure: For the MST assay, the same sequence of the two stranded HCV IRES subdomain IIa as for the FRET assay was used. One strand was 5′-Cy5-labelled and the other strand was unmodified ([…], Cy5-[…], Biomers.net GmbH). All samples containing labelled RNA were treated under light protection. MST experiments were performed on a Monolith NT.115 from NanoTemper Technologies using standard uncoated capillaries. The strands were annealed by heating to 75 °C in MST buffer (10 mM HEPES pH 7.0, 2 mM MgCl2) and cooled down to room temperature for at least 20 min. The 5′-Cy5-labelled HCV IRES domain IIa RNA was diluted to 30 nM in MST buffer and supplemented with compounds 8–25 in appropriate concentrations. Compounds 4 and 5 were used as positive controls. For the initial screening, compounds were added to final concentrations of 1000 (or 316 if limited by solubility), 100, 10 and 0.001 μM (Fig. S5 ^†). If a concentration-dependent shift of thermophoresis was observed, KD-values were determined using concentrations ranging from 1 mM (if permitted by solubility, otherwise starting from 316 or 100 μM) to 0.01 μM in a 3.16-fold (semi-logarithmic) dilution series. For each experiment, one DMSO negative control was carried out. Final DMSO concentration was always 2%.
as §1

Structure (SMILES) | aggregation in preQ1-riboswitch MST counter-screening [1] | aggregation in MST pre-screening (HCV IRES) [2]
COc1ccc2c(C)nc(NC(=N)N)nc2c1 [Compound 8c] | AggregaƟon | AggregaƟon
Nc1cc(-c2ccc3[nH]ncc3c2)c2cc[nH]c2n1 [Compound 12] |  | AggregaƟon
CCOc1ccc2c(C)nc(NC(=N)N)nc2c1 [Compound 8a] | AggregaƟon | AggregaƟon
Nc1nc(N2CCN(Cc3c(Cl)ccc(O)c3Cl)CC2)cc(=O)[nH]1 [Compound 9] | AggregaƟon | 
N=C(N)NC(=O)c1nc(Cl)c(N)nc1N [Compound 26, amiloride, reference compound] |  | AggregaƟon
CNC(=N)Nc1nc(C)c2ccc(OC)cc2n1 [Compound 8b] | AggregaƟon | AggregaƟon
CN(C)CCCn1c(N)nc2ccc3c(c21)CC(CN(C)C)CO3 (stereo not drawn) [Compound 5, reference compound] |  | AggregaƟon
NC1=NC(c2cn[nH]c2-c2cccc(O)c2)n2c(nc3ccccc32)N1 (stereo not drawn) [Compound 13] | AggregaƟon | 
NC(=O)c1c[nH]c2ccc(NC(=O)CCc3cc4n(n3)CCCNC4)cc12 [Compound 10] | AggregaƟon | AggregaƟon
CN(C)C(=O)COC(=O)Cc1ccc(OC(=O)c2ccc(NC(=N)N)cc2)cc1 [Compound 27, Camostat, reference compound] |  | AggregaƟon
CCOc1ccc2c(C)nc(NC(=N)NC)nc2c1 [Compound 8] |  | AggregaƟon
